This test deals with Nicotinic acetylcholine receptor alpha1/beta1/epsilon/delta (Mus musculus, UniProt P04756+P09690+P02716+P20782). The experiment in a line: Antagonist activity at mouse alpha1beta1deltaepsilon nACh receptor expressed in Xenopus oocyte assessed as inhibition of acetylcholine-induced response at -70 mV holding potential by voltage-clamp based electrophysiological assay.

By UniProt entry, the sequences of proteins in these tests, tags left out. Residues count along the entry.
UniProt P04756, 21-457 limits assumed: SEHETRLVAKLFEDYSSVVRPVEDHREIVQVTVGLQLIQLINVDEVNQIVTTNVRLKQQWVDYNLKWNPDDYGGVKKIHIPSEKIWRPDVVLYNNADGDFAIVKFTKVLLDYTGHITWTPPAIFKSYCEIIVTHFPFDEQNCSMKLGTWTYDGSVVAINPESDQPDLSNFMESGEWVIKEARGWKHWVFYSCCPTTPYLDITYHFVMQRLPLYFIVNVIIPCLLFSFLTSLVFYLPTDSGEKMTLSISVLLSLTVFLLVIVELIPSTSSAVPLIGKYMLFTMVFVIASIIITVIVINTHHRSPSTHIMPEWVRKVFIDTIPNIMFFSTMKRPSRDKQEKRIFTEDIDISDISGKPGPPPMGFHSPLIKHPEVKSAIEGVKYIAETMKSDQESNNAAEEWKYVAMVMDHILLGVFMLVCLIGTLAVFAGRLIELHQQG
UniProt P09690, 24-501 limits assumed: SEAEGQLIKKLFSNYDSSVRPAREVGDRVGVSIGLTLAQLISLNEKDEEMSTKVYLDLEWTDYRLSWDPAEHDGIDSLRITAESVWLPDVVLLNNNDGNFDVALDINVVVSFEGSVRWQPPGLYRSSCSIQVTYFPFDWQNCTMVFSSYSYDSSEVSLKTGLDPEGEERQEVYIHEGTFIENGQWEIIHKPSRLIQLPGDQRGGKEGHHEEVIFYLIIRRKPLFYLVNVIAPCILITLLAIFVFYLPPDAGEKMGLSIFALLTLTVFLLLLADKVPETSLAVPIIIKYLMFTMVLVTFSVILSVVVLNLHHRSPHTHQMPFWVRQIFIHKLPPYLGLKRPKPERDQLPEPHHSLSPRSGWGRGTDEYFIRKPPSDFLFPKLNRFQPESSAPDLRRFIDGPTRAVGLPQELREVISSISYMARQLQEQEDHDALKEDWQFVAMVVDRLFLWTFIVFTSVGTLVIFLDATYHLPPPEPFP
UniProt P02716, 25-520 limits assumed: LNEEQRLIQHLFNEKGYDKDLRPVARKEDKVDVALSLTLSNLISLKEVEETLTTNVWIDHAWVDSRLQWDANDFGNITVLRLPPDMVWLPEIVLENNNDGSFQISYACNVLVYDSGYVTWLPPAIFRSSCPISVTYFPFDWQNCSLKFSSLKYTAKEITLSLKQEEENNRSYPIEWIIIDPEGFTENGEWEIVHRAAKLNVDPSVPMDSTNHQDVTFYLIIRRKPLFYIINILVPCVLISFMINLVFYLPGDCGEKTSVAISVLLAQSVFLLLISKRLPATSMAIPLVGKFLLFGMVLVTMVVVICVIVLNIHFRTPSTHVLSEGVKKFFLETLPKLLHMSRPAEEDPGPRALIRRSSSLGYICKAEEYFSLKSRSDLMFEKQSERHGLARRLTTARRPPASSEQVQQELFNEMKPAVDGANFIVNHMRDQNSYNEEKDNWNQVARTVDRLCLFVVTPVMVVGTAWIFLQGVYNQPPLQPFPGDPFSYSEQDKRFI
UniProt P20782, 21-493 limits assumed: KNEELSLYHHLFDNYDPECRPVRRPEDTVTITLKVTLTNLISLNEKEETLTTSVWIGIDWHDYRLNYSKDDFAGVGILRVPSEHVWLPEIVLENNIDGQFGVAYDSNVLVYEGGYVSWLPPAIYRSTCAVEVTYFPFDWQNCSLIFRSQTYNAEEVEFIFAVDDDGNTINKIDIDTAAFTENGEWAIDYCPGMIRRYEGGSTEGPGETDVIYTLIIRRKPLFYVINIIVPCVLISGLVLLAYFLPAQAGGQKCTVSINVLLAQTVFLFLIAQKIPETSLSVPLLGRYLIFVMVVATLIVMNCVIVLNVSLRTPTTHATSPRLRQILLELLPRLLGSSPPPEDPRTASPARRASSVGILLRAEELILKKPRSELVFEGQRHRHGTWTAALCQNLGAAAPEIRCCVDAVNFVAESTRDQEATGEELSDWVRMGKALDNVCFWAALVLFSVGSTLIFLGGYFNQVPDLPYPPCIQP

For `CC[C@H](C)[C@@H]1NC(=O)[C@H](CCCNC(=N)N)NC(=O)[C@H](CCCNC(=N)N)NC(=O)[C@@H](NC(=O)[C@H](Cc2ccc(O)cc2)NC(=O)[C@H](CCCNC(=N)N)NC(=O)[C@H](CCCNC(=N)N)NC(=O)[C@H](CCCNC(=N)N)NC(=O)[C@H](CCCNC(=N)N)NC(=O)[C@H](CC(=O)O)NC(=O)[C@H](Cc2ccc(O)cc2)NC(=O)[C@@H]2CCCN2C(=O)[C@@H](CO)NC(=O)[C@H](C)NC(=O)[C@@H]2CSSC[C@H](NC(=O)[C@@H](N)[C@@H](C)O)C(=O)N[C@@H](CCCNC(=N)N)C(=O)N[C@@H](CO)C(=O)N[C@@H](CO)C(=O)NCC(=O)N[C@@H](CCCNC(=N)N)C(=O)N[C@@H](Cc3ccc(O)cc3)C(=O)N2)CSSC[C@@H](C(=O)N[C@H](C(=O)O)C(C)C)NC(=O)[C@H](C)NC(=O)[C@H](CC(=O)O)NC(=O)[C@H]([C@@H](C)O)NC1=O`, the IC50 came to 1.02 µM.
In the case of `CC[C@H](C)[C@@H]1NC(=O)[C@H](CCCNC(=N)N)NC(=O)[C@H](CCCNC(=N)N)NC(=O)[C@@H]2CSSC[C@H](NC(=O)[C@H](Cc3ccc(O)cc3)NC(=O)[C@H](CCCNC(=N)N)NC(=O)CNC(=O)[C@H](CO)NC(=O)[C@H](CO)NC(=O)[C@H](C)NC(=O)[C@@H](NC(=O)[C@@H](N)[C@@H](C)O)CSSC[C@@H](C(=O)N[C@H](C(=O)O)C(C)C)NC(=O)[C@H](C)NC(=O)[C@H](CC(=O)O)NC(=O)[C@H]([C@@H](C)O)NC1=O)C(=O)N[C@@H](CCCNC(=N)N)C(=O)N[C@@H](CO)C(=O)N1CCC[C@H]1C(=O)N[C@@H](Cc1ccc(O)cc1)C(=O)N[C@@H](CC(=O)O)C(=O)N[C@@H](CCCNC(=N)N)C(=O)N[C@@H](CCCNC(=N)N)C(=O)N[C@@H](CCCNC(=N)N)C(=O)N[C@@H](CCCNC(=N)N)C(=O)N[C@@H](Cc1ccc(O)cc1)C(=O)N2`, the IC50 stood at 2.18 µM.
On to `CC[C@H](C)[C@@H]1NC(=O)[C@H](CCCNC(=N)N)NC(=O)[C@H](C)NC(=O)[C@@H]2CSSC[C@H](NC(=O)[C@H](Cc3ccc(O)cc3)NC(=O)[C@H](CCCNC(=N)N)NC(=O)CNC(=O)[C@H](CO)NC(=O)[C@H](CO)NC(=O)[C@H](CCCNC(=N)N)NC(=O)[C@@H](NC(=O)[C@@H](N)[C@@H](C)O)CSSC[C@@H](C(=O)N[C@H](C(=O)O)C(C)C)NC(=O)[C@H](C)NC(=O)[C@H](CC(=O)O)NC(=O)[C@H]([C@@H](C)O)NC1=O)C(=O)N[C@@H](CCCNC(=N)N)C(=O)N[C@@H](CO)C(=O)N1CCC[C@H]1C(=O)N[C@@H](Cc1ccc(O)cc1)C(=O)N[C@@H](CC(=O)O)C(=O)N[C@@H](CCCNC(=N)N)C(=O)N[C@@H](CCCNC(=N)N)C(=O)N[C@@H](CCCNC(=N)N)C(=O)N[C@@H](CCCNC(=N)N)C(=O)N[C@@H](Cc1ccc(O)cc1)C(=O)N2`, for which the IC50 came out at 0.86 µM.
The figure for `CC[C@H](C)[C@@H]1NC(=O)[C@H](CCCNC(=N)N)NC(=O)[C@H](CCCNC(=N)N)NC(=O)[C@@H](NC(=O)[C@H](Cc2ccc(O)cc2)NC(=O)[C@H](CCCNC(=N)N)NC(=O)[C@H](CCCNC(=N)N)NC(=O)[C@H](CCCNC(=N)N)NC(=O)[C@H](CCCNC(=N)N)NC(=O)[C@H](CC(=O)O)NC(=O)[C@H](Cc2ccc(O)cc2)NC(=O)[C@@H]2CCCN2C(=O)[C@H](CO)NC(=O)[C@H](CCCNC(=N)N)NC(=O)[C@@H]2CSSC[C@H](NC(=O)[C@@H](N)[C@@H](C)O)C(=O)N[C@@H](CCCNC(=N)N)C(=O)N[C@@H](CO)C(=O)N[C@@H](C)C(=O)NCC(=O)N[C@@H](CCCNC(=N)N)C(=O)N[C@@H](Cc3ccc(O)cc3)C(=O)N2)CSSC[C@@H](C(=O)N[C@H](C(=O)O)C(C)C)NC(=O)[C@H](C)NC(=O)[C@H](CC(=O)O)NC(=O)[C@H]([C@@H](C)O)NC1=O` is 0.96 µM.

Broadly, the IC50 is the midpoint of a concentration-inhibition curve.

The values are drawn from ChEMBL document CHEMBL5346973 (J Med Chem, 2023).
